Test results as given in publication PMC11944514, “Dengue Virus Inhibitors as Potential Broad-Spectrum Flavivirus Inhibitors” (Pharmaceuticals, 2025).

Test system: DENV2-Nanoluc
Assay type: cell-based
Details: not given

**Q.** How did the “fold difference of EC50 against DENV2 in Vero E6 versus reported EC50 in BHK-21” value turn out when `CN1C(=O)C2(CC(=O)Nc3c2cnn3Cc2ccc(Cl)cc2)c2cc(Cl)ccc21` (stereo not drawn) [Compound C6, 5-chloro-1′-[(4-chlorophenyl)methyl]-1-methyl-1,1′,2,5′,6′,7′-hexahydrospiro[indole-3,4′-pyrazolo[3,4-b]pyridine]-2,6′-dione] was run?
**A.** approximately 600 fold

Test system: KUNV-Nanoluc
Assay type: cell-based
Details: ratio CC50 / EC50

**Q.** With `O[C@H]1[C@H]2c3cc4c(cc3CN3CCC(=C[C@@H]1O)[C@H]23)OCO4` [Compound C1, (1S,17S,18S,19S)-5,7-dioxa-12-azapentacyclo[10.6.1.0^2,^10.0^4,^8.0^15,^19]nonadeca-2(10),3,8,15-tetraene-17,18-diol] as the compound, how does the “KUNV SI” value read?
**A.** 7.6

**Q.** With `CC(C)(C)Oc1cccc2nc(N)nc(N)c12` [Compound C2, 5-(tert-butoxy)quinazoline-2,4-diamine] as the compound, how does the “KUNV SI” value read?
**A.** 1.2

**Q.** For `COc1c(C)c2c(c(O)c1CC=C(C)CCC(=O)O)C(=O)OC2` [Compound C3, 6-(4-hydroxy-6-methoxy-7-methyl-3-oxo-1,3-dihydro-2-benzofuran-5-yl)-4-methylhex-4-enoic acid], which “KUNV SI” value is on record?
**A.** >23

**Q.** For `O=[N+]([O-])c1c(Nc2ccccc2O)cc(Cl)c2nonc12` [Compound C5, 2-[(7-chloro-4-nitro-2,1,3-benzoxadiazol-5-yl)amino]phenol], which “KUNV SI” value is on record?
**A.** 1.4

**Q.** Which “KUNV SI” value does the source give for `CN1C(=O)C2(CC(=O)Nc3c2cnn3Cc2ccc(Cl)cc2)c2cc(Cl)ccc21` (stereo not drawn) [Compound C6, 5-chloro-1′-[(4-chlorophenyl)methyl]-1-methyl-1,1′,2,5′,6′,7′-hexahydrospiro[indole-3,4′-pyrazolo[3,4-b]pyridine]-2,6′-dione] here?
**A.** 2.4
